# Data reported in patent US20250320281A1 (published 2025).
# Experiments:
# Assay in all cases: cell-based or functional assay
# [1] = molecular target: HIV-1 Env of isolate MG RM-A-006 (subtype A) (HIV-1)
# [2] = molecular target: HIV-1 Env of isolate MG RM-A-007 (subtype A) (HIV-1)
# [3] = molecular target: HIV-1 Env of isolate MG RM-A-008 (subtype A) (HIV-1)
# [4] = molecular target: HIV-1 Env of isolate MG RM-A-011 (subtype A) (HIV-1)
# [5] = molecular target: HIV-1 Env of isolate MG RM-A-012 (subtype A) (HIV-1)
# [6] = molecular target: HIV-1 Env of isolate MG RM-A-009 (subtype A) (HIV-1)
# [7] = molecular target: HIV-1 93IN905 Env on pseudotyped virus (HIV-1 isolate 93IN905)
# [8] = molecular target: HIV-1 IAVI_C22 Env on pseudotyped virus (HIV-1 isolate IAVI_C22)
# [9] = molecular target: HIV-1 92TH021 Env on pseudotyped virus (HIV-1 isolate 92TH021)
# [10] = molecular target: HIV-1 NL43 Env on pseudotyped virus (HIV-1 NL43)
# [11] = molecular target: HIV-1 SF162 Env on pseudotyped virus (HIV-1 isolate SF162)
# [12] = molecular target: HIV-1 94UG103 Env on pseudotyped virus (HIV-1 isolate 94UG103)
# [13] = molecular target: HIV-1 92BR020 Env on pseudotyped virus (HIV-1 isolate 92BR020)
# [14] = molecular target: HIV-1 94UG103 envelope glycoprotein (Env) on pseudovirus (HIV-1)
# [15] = molecular target: HIV-1 92RW020 envelope glycoprotein (Env) on pseudovirus (HIV-1)
# [16] = molecular target: HIV-1 93UG077 envelope glycoprotein (Env) on pseudovirus (HIV-1)
# [17] = molecular target: HIV-1 92BR020 envelope glycoprotein (Env) on pseudovirus (HIV-1)
# [18] = molecular target: HIV-1 APV-13 envelope glycoprotein (Env) on pseudovirus (HIV-1)
# [19] = molecular target: HIV-1 APV-17 envelope glycoprotein (Env) on pseudovirus (HIV-1)
# [20] = molecular target: HIV-1 APV-6 envelope glycoprotein (Env) on pseudovirus (HIV-1)
# [21] = molecular target: HIV-1 93IN905 envelope glycoprotein (Env) on pseudovirus (HIV-1)
# [22] = molecular target: HIV-1 IAVI-C18 envelope glycoprotein (Env) on pseudovirus (HIV-1)
# [23] = molecular target: HIV-1 IAVI-C22 envelope glycoprotein (Env) on pseudovirus (HIV-1)
# [24] = molecular target: HIV-1 IAVI-C3 envelope glycoprotein (Env) on pseudovirus (HIV-1)
# [25] = molecular target: HIV-1 92UG024 envelope glycoprotein (Env) on pseudovirus (HIV-1)
# [26] = molecular target: HIV-1 92UG005 envelope glycoprotein (Env) on pseudovirus (HIV-1)
# [27] = molecular target: HIV-1 92TH021 envelope glycoprotein (Env) on pseudovirus (HIV-1)
# [28] = molecular target: HIV-1 CMU02 envelope glycoprotein (Env) on pseudovirus (HIV-1)
# [29] = molecular target: HIV-1 Env of isolate 92BR020 (pseudovirus) (HIV-1)
# [30] = molecular target: HIV-1 Env of isolate MGRM-C-026 (pseudovirus) (HIV-1)
binder,measurement,setting,value
"4993_K13 (PGT-141) (antibody, V domains shown) VH: QVQLVQSGPEVKKPGSSVKVSCKASGNTFSKYDVHWVRQATGQGLEWVGWMSHEGDKTESAQRFKGRVTFTRDTSASTAYMELRGLTSDDTAIYYCTRGSKHRLRDYVLYDDYGLINYQEWNDYLEFLDVWGHGTAVTVSS VL: DTVVTQSPLSLPVTPGEAASMSCSSTQSLRHSNGANYLAWYQHKPGQSPRLLIRLGSQRASGVPDRFSGSGSGTHFTLKISRVEAEDAAIYYCMQGLNRPWTFGKGTKLEIK","IC50 (µg/mL), pseudovirus neutralization",[1],> 50 µg/mL
same,"IC50 (µg/mL), pseudovirus neutralization",[2],> 50 µg/mL
same,"IC50 (µg/mL), pseudovirus neutralization",[3],> 50 µg/mL
same,"IC50 (µg/mL), pseudovirus neutralization",[4],> 50 µg/mL
same,"IC50 (µg/mL), pseudovirus neutralization",[5],> 50 µg/mL
"4995_E20 (PGT-142) (antibody, V domains shown) VH: QVQLVQSGPEVKKPGSSVKVSCKASGNTFSKYDVHWVRQATGQGLEWVGWISHERDKTESAQRFKGRVTFTRDTSATTAYMELRGLTSDDTAIYYCTRGSKHRLRDYVLYDDYGLINYQEWNDYLEFLDVWGHGTAVTVSS VL: DTVVTQSPLSLPVTPGEAASMSCSSTQSLRHSNGANYLAWYQHKPGQSPRLLIRLGSQRASGVPDRFSGSGSGTHFTLKISRVEAEDAAIYYCMQGLNRPWTFGKGTKLEIK","IC50 (µg/mL), pseudovirus neutralization",[1],> 50 µg/mL
same,"IC50 (µg/mL), pseudovirus neutralization",[2],> 50 µg/mL
same,"IC50 (µg/mL), pseudovirus neutralization",[3],> 50 µg/mL
same,"IC50 (µg/mL), pseudovirus neutralization",[4],> 50 µg/mL
same,"IC50 (µg/mL), pseudovirus neutralization",[5],> 50 µg/mL
"4980_N08 (PGT-143) (antibody, V domains shown) VH: QVQLEQSGAEVKKPGSSVKVSCKASGNTFSKYDVHWVRQATGQGLEWVGWMSHEGDKTESAQRFKGRVTFTRDTSASTAYMELRGLTSDDTAIYYCTRGSKHRLRDYVLYDDYGLINYQEWNDYLEFLDVWGHGTAVTVSS VL: DTVVTQSPLSLPVTPGEAASMSCTSTQSLRHSNGANYLAWYQHKPGQSPRLLIRLGSQRASGVPDRFSGSGSGTHFTLKISRVEPEDAAIYYCMQGLNRPWTFGKGTKLEIK","IC50 (µg/mL), pseudovirus neutralization",[1],> 50 µg/mL
same,"IC50 (µg/mL), pseudovirus neutralization",[2],> 50 µg/mL
same,"IC50 (µg/mL), pseudovirus neutralization",[3],> 50 µg/mL
same,"IC50 (µg/mL), pseudovirus neutralization",[6],0.05 µg/mL
same,"IC50 (µg/mL), pseudovirus neutralization",[4],> 50 µg/mL
same,"IC50 (µg/mL), pseudovirus neutralization",[5],> 50 µg/mL
"4995_P16 (PGT-145) (antibody, V domains shown) VH: QVQLVQSGAEVKKPGSSVKVSCKASGNSFSNHDVHWVRQATGQGLEWMGWMSHEGDKTGLAQKFQGRVTITRDSGASTVYMELRGLTADDTAIYYCLTGSKHRLRDYFLYNEYGPNYEEWGDYLATLDVWGHGTAVTVSS VL: EVVITQSPLFLPVTPGEAASLSCKCSHSLQHSTGANYLAWYLQRPGQTPRLLIHLATHRASGVPDRFSGSGSGTDFTLKISRVESDDVGTYYCMQGLHSPWTFGQGTKVEIK","IC50 (µg/mL), pseudovirus neutralization",[1],> 50 µg/mL
same,"IC50 (µg/mL), pseudovirus neutralization",[2],> 50 µg/mL
same,"IC50 (µg/mL), pseudovirus neutralization",[3],> 50 µg/mL
"1456_P20 (PG20) (antibody, V domains shown) VH: QVRLVQSGPEVKKPGSSVTVSCQASGGTFSSYAFTWVRQAPGQGLEWLGMVTPIFGEAKYSQRFEGRVTITADESTSTTSIELRGLTSEDTAIYYCARDRRAVPIATDNWLDPWGQGTLVTVSS VL: DIQLTQSPSSLSASVGDRVSITCRASQTINNYLNWYQQTPGKAPKLLIYGASNLQNGVPSRFSGSGSGTDFTLTISSLQPEDFATYYCQQSFSTPRTFGQGTRLDIKR [1456_P20 (PG20), listing 1 of 2 here]",Neutralizing Antibody Assay: IC50; Virus/Ab Incubation 1 hour,[7],> 50 µg/mL
same,Neutralizing Antibody Assay: IC50; Virus/Ab Incubation 18 hour,[7],3.84 µg/mL
same,Neutralizing Antibody Assay: IC50; Virus/Ab Incubation 1 hour,[8],> 50 µg/mL
same,Neutralizing Antibody Assay: IC50; Virus/Ab Incubation 18 hour,[8],> 50 µg/mL
same,Neutralizing Antibody Assay: IC50; Virus/Ab Incubation 1 hour,[9],> 50 µg/mL
same,Neutralizing Antibody Assay: IC50; Virus/Ab Incubation 18 hour,[9],> 50 µg/mL
same,Neutralizing Antibody Assay: IC50; Virus/Ab Incubation 1 hour,[10],0.2 µg/mL
same,Neutralizing Antibody Assay: IC50; Virus/Ab Incubation 18 hour,[10],0.05 µg/mL
same,Neutralizing Antibody Assay: IC50; Virus/Ab Incubation 1 hour,[11],0.195 µg/mL
same,Neutralizing Antibody Assay: IC50; Virus/Ab Incubation 18 hour,[11],0.0661 µg/mL
same,Neutralizing Antibody Assay: IC50; Virus/Ab Incubation 1 hour,[12],> 50 µg/mL
same,Neutralizing Antibody Assay: IC50; Virus/Ab Incubation 18 hour,[12],> 50 µg/mL
same,Neutralizing Antibody Assay: IC50; Virus/Ab Incubation 1 hour,[13],> 50 µg/mL
same,Neutralizing Antibody Assay: IC50; Virus/Ab Incubation 18 hour,[13],> 50 µg/mL
"1460_G14 (PGG14) (antibody, V domains shown) VH: QVLLVQSGTEVKKPGSSVKVSCQASGGAFSSYAFSWVRQAPGQGLEWMGMITPVFGETKYAPRFQGRLTLTAEESLSTTYMELRSLTSDDTAFYYCTRDRRVVPMATDNWLDPWGQGTLVTVSS VL: DIQLTQSPSSLSASVGDRVTVTCRASQTIHTYLNWYQQIPGKAPKLLIYGASTLQSGVPSRFSGSGSGTDFTLTINSLQPEDFATYYCQQSYSTPRTFGQGTRLDIKR","IC50, pseudovirus neutralization",[14],> 50 µg/mL
same,"IC50, pseudovirus neutralization",[15],> 50 µg/mL
same,"IC50, pseudovirus neutralization",[16],> 50 µg/mL
same,"IC50, pseudovirus neutralization",[17],> 50 µg/mL
same,"IC50, pseudovirus neutralization",[18],> 50 µg/mL
same,"IC50, pseudovirus neutralization",[19],> 50 µg/mL
same,"IC50, pseudovirus neutralization",[20],> 50 µg/mL
same,"IC50, pseudovirus neutralization",[21],> 50 µg/mL
same,"IC50, pseudovirus neutralization",[22],> 50 µg/mL
same,"IC50, pseudovirus neutralization",[23],> 50 µg/mL
same,"IC50, pseudovirus neutralization",[24],> 50 µg/mL
same,"IC50, pseudovirus neutralization",[25],> 50 µg/mL
same,"IC50, pseudovirus neutralization",[26],> 50 µg/mL
same,"IC50, pseudovirus neutralization",[27],> 50 µg/mL
same,"IC50, pseudovirus neutralization",[28],> 50 µg/mL
"1456_P20 (PG20) (antibody, V domains shown) VH: QVRLVQSGPEVKKPGSSVTVSCQASGGTFSSYAFTWVRQAPGQGLEWLGMVTPIFGEAKYSQRFEGRVTITADESTSTTSIELRGLTSEDTAIYYCARDRRAVPIATDNWLDPWGQGTLVTVSS VL: DIQLTQSPSSLSASVGDRVSITCRASQTINNYLNWYQQTPGKAPKLLIYGASNLQNGVPSRFSGSGSGTDFTLTISSLQPEDFATYYCQQSFSTPRTFGQGTRLDIKR [1456_P20 (PG20), listing 2 of 2 here]","IC50, pseudovirus neutralization",[14],> 50 µg/mL
same,"IC50, pseudovirus neutralization",[15],> 50 µg/mL
same,"IC50, pseudovirus neutralization",[16],> 50 µg/mL
same,"IC50, pseudovirus neutralization",[17],> 50 µg/mL
same,"IC50, pseudovirus neutralization",[18],> 50 µg/mL
same,"IC50, pseudovirus neutralization",[19],> 50 µg/mL
same,"IC50, pseudovirus neutralization",[21],> 50 µg/mL
same,"IC50, pseudovirus neutralization",[22],> 50 µg/mL
same,"IC50, pseudovirus neutralization",[23],> 50 µg/mL
same,"IC50, pseudovirus neutralization",[24],> 50 µg/mL
same,"IC50, pseudovirus neutralization",[25],> 50 µg/mL
same,"IC50, pseudovirus neutralization",[26],> 50 µg/mL
same,"IC50, pseudovirus neutralization",[27],> 50 µg/mL
same,"IC50, pseudovirus neutralization",[28],> 50 µg/mL
"4838_L06 (PGT-121) (antibody, V domains shown) VH: QMQLQESGPGLVKPSETLSLTCSVSGASISDSYWSWIRRSPGKGLEWIGYVHKSGDTNYSPSLKSRVNLSLDTSKNQVSLSLVAATAADSGKYYCARTLHGRRIYGIVAFNEWFTYFYMDVWGNGTQVTVSS VL: SDISVAPGETARISCGEKSLGSRAVQWYQHRAGQAPSLIIYNNQDRPSGIPERFSGSPDSPFGTTATLTITSVEAGDEADYYCHIWDSRVPTKWVFGGGTTLTVL",Primary Neutralization Index (B cell culture supernatant),[29],4.9
same,Primary Neutralization Index (B cell culture supernatant),[30],996
